Results as given in paper PMC3202645 (Biochemistry, 2011).

How the values were obtained:
(UreAC)3 = (UreAC)3 (Klebsiella aerogenes); experiment: SEC
UreC = UreC (Klebsiella aerogenes); experiment: co-purification

B1: UreB (natural protein, Klebsiella aerogenes, UniProt P18315 1-106, looked up)
chain: MIPGEYHVKPGQIALNTGRATCRVVVENHGDRPIQVGSHYHFAEVNPALKFDRQQAAGYRLNIPAGTAVRFEPGQKREVELVAFAGHRAVFGFRGEVMGPLEVNDE
apparent UreA:UreB:UreC ratio of gel band intensities in peak 1 ((UreAC)3): 0.5 UreB per UreC (apparent)

B2: UreA (natural protein, Klebsiella aerogenes, UniProt P18316 1-100, looked up)
chain: MELTPREKDKLLLFTAALVAERRLARGLKLNYPESVALISAFIMEGARDGKSVASLMEEGRHVLTREQVMEGVPEMIPDIQVEATFPDGSKLVTVHNPII
apparent UreA:UreC ratio of gel band intensities (UreC): 0.5 UreA per UreC (apparent)
